The target of this test is T1, recombinant YFV E protein (soluble E, sE; YFV Asibi strain) (Yellow fever virus, Asibi strain).
T1 construct: also called YFV E antigen; YFV E monomer
In words: BLI monovalent (IgG on tip).

B1: ADI-42126 (antibody, V domains shown)
VH: QVQLVQSGAEVKKPGASVKVSCKASGYTFTGYYMHWVRQAPGQGLEWMGWINPNSGGTNYAQKFQGWVTMTRDTSISTAYMELSRLRSDDTAVYYCASGLSPDFSVLDVWGQGTTVTVSS
VL: [about 120 residues not given here]
notes: full-length IgG
Broadly, the Kd is the free concentration of one partner at which half of the binding sites on the other are occupied at equilibrium, for simple one-to-one binding. Regarding B1, the Kd turned out to be 331 nM.
